A mixed list of measured activities; the numbers were collected in NIAID ChemDB.

All rows: whole-cell or culture tests; species: HIV-1; read-out: EC50

ECn is the concentration giving n% inhibition of infection, replication or growth. An empty or dashed field is not shown. Conditions beyond the fields shown may differ between rows.

COc1ccccc1NC(=O)c1ccccc1Oc1ccc(OCO)c(OCO)c1 ; strain or isolate: LAI ; cell line: H9 ; result: 12.6 µM
COc1ccc(-c2nnc(SC(c3ccccc3)c3ccccc3)n2N)cc1 ; strain or isolate: NNRTI-resistant N119 ; cell line: MT-4 ; changes: RT-Y181C ; result: >100 µM
Nc1ccn([C@@H]2C[C@H](F)[C@H](CO)O2)c(=O)n1 ; strain or isolate: LAL ; cell line: CEM + CEM-SS ; result: 82 µM
COc1ccc(-c2nnc(S[C@@H]3O[C@H](CO)[C@@H](O)[C@H](O)[C@H]3O)n2N)cc1 ; strain or isolate: NNRTI-resistant N119 ; cell line: MT-4 ; changes: RT-Y181C ; result: >100 µM
O=C(O)CCCCCCCCCCCCC(=O)NC(CO[C@@H]1O[C@H](CO)[C@H](O)[C@H](O)[C@H]1O)C(=O)NCCO ; strain or isolate: IIIB ; method: cytopathic effect / MTT ; cell line: MT-4 ; result: >100 µM
Cc1ncc(-c2ccc(OCC(C)C)cn2)c(N2CCC3(CCCO3)CC2)c1[C@H](OC(C)(C)C)C(=O)O ; strain or isolate: NL4-3 ; method: luminescence ; cell line: MT-2 ; result: 18.3 µM
CC(C)C1=C2[C@H]3CC[C@@H]4[C@@]5(C)CC[C@H](OC(=O)[C@H]6C[C@@H](C(=O)O)C6(C)C)C(C)(C)[C@@H]5CC[C@@]4(C)[C@]3(C)CC[C@@]2([C@@H](O)CNCC(CCN)NC(=O)c2ccc(Cl)cc2)CC1=O ; strain or isolate: 92HT599 ; method: p24 / ELISA ; cell line: MT-2 ; result: <1 µM
Cc1ccc(-c2n[nH]c(=S)n2N)cc1 ; strain or isolate: NNRTI-resistant N119 ; cell line: MT-4 ; changes: RT-Y181C ; result: >100 µM
O=c1cc(-c2ccc(O)cc2)oc2c([C@@H]3O[C@H](CO)[C@@H](O)[C@H](O)[C@H]3O)c(O)cc(O)c12 ; strain or isolate: MC99 deltaTAT/REV ; method: syncytia ; cell line: 1A2 ; result: >125 µg/mL
Cc1ncc(-c2ccc(OCCOC3CCCC3)cn2)c(N2CCC3(CCCC3)CC2)c1[C@H](OC(C)(C)C)C(=O)O ; strain or isolate: NL4-3 ; method: luminescence ; cell line: MT-2 ; result: 2.3 µM
CC(C)C1=C2[C@H]3CC[C@@H]4[C@@]5(C)CC[C@H](OC(=O)[C@H]6C[C@@H](C(=O)O)C6(C)C)C(C)(C)[C@@H]5CC[C@@]4(C)[C@]3(C)CC[C@@]2(CC(=O)NCC(C)(C)NC(=O)c2ncccn2)CC1=O ; strain or isolate: 92HT599 ; method: p24 / ELISA ; cell line: MT-2 ; result: <1 µM
Cc1ncc(-c2ccc(OCC3CCOC3)cn2)c(N2CCC3CCCCC3C2)c1[C@H](OC(C)(C)C)C(=O)O ; strain or isolate: NL4-3 ; method: luminescence ; cell line: MT-2 ; result: 4.9 µM
COCc1nc(Nc2ccc(C#N)cc2)nc(Nc2c(C)cc(/C=C/C#N)cc2C)c1C(=O)NCCc1ccccn1 ; strain or isolate: L1001+K103N ; cell line: MT4 CMV-EGFP ; result: 0.0575 µM
CC1(C)Oc2ccc3ccc(=O)oc3c2[C@@H](OC(=O)C23CCC(C)(C(=O)O2)C3(C)C)[C@@H]1OC(=O)C12CCC(C)(C(=O)O1)C2(C)C ; strain or isolate: IIIB ; method: p24 / ELISA ; cell line: H9 ; result: 32 µM
COCc1nc(Nc2ccc(C#N)cc2)nc(Nc2c(C)cc(/C=C/C#N)cc2C)c1C(=O)NCC(OC)OC ; strain or isolate: IIIB ; cell line: MT4 CMV-EGFP ; result: 0.00257 µM
CCNc1cccnc1N1CCN(C(=O)c2cc3ccccc3o2)CC1 ; method: syncytia ; cell line: MT-2 ; result: 2 µM
COCCNC(=O)c1c(COC)nc(Nc2ccc(C#N)cc2)nc1Oc1c(C)cc(/C=C/C#N)cc1C ; strain or isolate: K103N + Y181C ; cell line: MT4 CMV-EGFP ; result: 0.0692 µM
CC(C)=CCc1c(O[C@@H]2O[C@H](CO)[C@@H](O)[C@H](O)[C@H]2O)cc2c(c1O)C(=O)[C@H](O)[C@@H](c1ccc(O)c(O)c1)O2 ; strain or isolate: MC99 deltaTAT/REV ; method: syncytia ; cell line: 1A2 ; result: 44.2 µg/mL
O=c1[nH]cc(F)c(=O)[nH]1 ; strain or isolate: JEW ; method: p24 ; cell line: PBMC ; result: >0.5 µM
CCC1(C)CCN(c2c(-c3ccc(OCC4CCOC4)cn3)cnc(C)c2[C@H](OC(C)(C)C)C(=O)O)CC1 ; strain or isolate: NL4-3 ; method: luminescence ; cell line: MT-2 ; result: 3.9 µM
COCCNC(=O)c1c(COC)nc(Nc2ccc(C#N)cc2)nc1Nc1c(C)cc(/C=C/C#N)cc1C ; strain or isolate: L1001+K103N ; cell line: MT4 CMV-EGFP ; result: 0.00794 µM
COc1cc(O)c2c(=O)cc(-c3ccc(Oc4cc(-c5cc(=O)c6c(O)cc(O)cc6o5)ccc4O)cc3)oc2c1 ; strain or isolate: MC99 deltaTAT/REV ; method: syncytia ; cell line: 1A2 ; result: 2 µg/mL
C/C1=C\CC(C)(C)/C=C/C(=O)/C(C)=C/CC1 ; strain or isolate: RF ; method: cytopathic effect / XTT ; cell line: CEM(SS) + CEM-SS ; result: 0.04 µg/mL
COCc1nc(Nc2ccc(C#N)cc2)nc(Nc2c(C)cc(/C=C/C#N)cc2C)c1C(=O)N(C)OC ; strain or isolate: L1001+K103N ; cell line: MT4 CMV-EGFP ; result: 0.0646 µM
CC(C)(C)C(=O)SCCOP(=O)(OCCSC(=O)C(C)(C)C)OC[C@@H]1O[C@H](n2cc(Cl)c(N)nc2=O)C[C@H]1F ; strain or isolate: IIIB ; cell line: CEM + CEM/O ; result: >50 µM
COc1ccccc1NC(=O)c1ccccc1C(O)c1ccc(C#N)cc1 ; strain or isolate: LAI ; cell line: MT-4 ; result: 22.8 µM
CC(C)c1c(Cc2ccccc2)n(COCc2ccc(/C(O)=C/C(=O)C(=O)O)cc2)c(=O)[nH]c1=O ; result: 0.033 µM
CC(C)C1=C2[C@H]3CC[C@@H]4[C@@]5(C)CC[C@H](OC(=O)[C@H]6C[C@@H](C(=O)O)C6(C)C)C(C)(C)[C@@H]5CC[C@@]4(C)[C@]3(C)CC[C@@]2(CC(=O)NCC(C)(C)NC(=O)c2cc(C(C)C)[nH]n2)CC1=O ; strain or isolate: 92HT599 ; method: p24 / ELISA ; cell line: MT-2 ; result: <1 µM
Cc1ncc(-c2ccc(OCCc3ccc(F)cc3)cn2)c(N2CCC3(CCCO3)CC2)c1[C@H](OC(C)(C)C)C(=O)O ; strain or isolate: NL4-3 ; method: luminescence ; cell line: MT-2 ; result: 11.7 µM
N=C1Sc2ccccc2C2=NCCCN12 ; strain or isolate: RU132 ; method: MTS ; cell line: PBMC ; result: 0.2 µM
CC(C)C1=C2[C@H]3CC[C@@H]4[C@@]5(C)CC[C@H](OC(=O)[C@H]6C[C@@H](C(=O)O)C6(C)C)C(C)(C)[C@@H]5CC[C@@]4(C)[C@]3(C)CC[C@@]2(CCNC(=O)c2csc(N)n2)CC1=O ; strain or isolate: 92HT599 ; method: p24 / ELISA ; cell line: MT-2 ; result: <1 µM
COc1ccccc1NC(=O)c1ccccc1C(O)c1cccc([N+](=O)[O-])c1 ; strain or isolate: LAI ; cell line: MT-4 ; result: >100 µM
COCc1nc(Nc2ccc(C#N)cc2)nc(Oc2c(C)cc(/C=C/C#N)cc2C)c1C(=O)NCc1ccncc1 ; strain or isolate: L1001+K103N ; cell line: MT4 CMV-EGFP ; result: 0.0933 µM
O=C(O)CCCCCCCCCCCCCNC(=O)C(CO[C@@H]1O[C@H](CO)[C@H](O)[C@H](O)[C@H]1O)NC(=O)CCC(=O)O ; strain or isolate: LAI ; method: cytopathic effect / MTT ; cell line: CEM + CEM-SS ; result: >100 µM
CC(C)Nc1cccnc1N(C)CCCCN(C)C(=O)c1cc2ccccc2[nH]1 ; method: p24 ; cell line: PBL ; result: >0.01 µM
CC(C)C1=C2[C@H]3CC[C@@H]4[C@@]5(C)CC[C@H](OC(=O)[C@H]6C[C@@H](C(=O)O)C6(C)C)C(C)(C)[C@@H]5CC[C@@]4(C)[C@]3(C)CC[C@@]2([C@@H](O)CNCc2ccc(Cl)cc2OCCN2CCCCC2)CC1=O ; strain or isolate: 92HT599 ; method: p24 / ELISA ; cell line: MT-2 ; result: <1 µM
Cc1ncc(-c2ccc(OCCC3CCOCC3)cn2)c(N2CCC3(CCCC3)CC2)c1[C@H](OC(C)(C)C)C(=O)O ; strain or isolate: NL4-3 ; method: luminescence ; cell line: MT-2 ; result: 1 µM
COc1ccc2c(c1)N=CN1CCc3c([nH]c4ccccc34)C3=NCC[C@@]321 ; method: syncytia ; result: 0.95 µg/mL
Nc1nc(=O)n([C@@H]2C[C@@H](F)[C@H](CO)O2)cc1Cl ; strain or isolate: IIIB ; cell line: CEM + CEM/O ; result: >50 µM
COc1ccccc1NC(=O)c1ccccc1C(O)c1ccc(OCO)c(OCO)c1 ; strain or isolate: LAI ; cell line: MT-4 ; result: 45.2 µM
CC(C)C1=C2[C@H]3CC[C@@H]4[C@@]5(C)CC[C@H](OC(=O)[C@H]6C[C@@H](C(=O)O)C6(C)C)C(C)(C)[C@@H]5CC[C@@]4(C)[C@]3(C)CC[C@@]2(CC(=O)NCc2csc(N)n2)CC1=O ; strain or isolate: 92HT599 ; method: p24 / ELISA ; cell line: MT-2 ; result: <1 µM
O=C(CNC(=O)COc1ccccc1)NCc1ccc(C(=O)N2CCCCC2)cc1 ; strain or isolate: 93IN101 ; method: RT activity ; cell line: PBMC ; result: 16.3 µM
O=c1cc(Cc2ccc3ccccc3c2)nc(SC2CCCC2)[nH]1 ; strain or isolate: Nev^R(RT-Y181C) ; method: cytopathic effect / MTT ; cell line: MT-4 ; changes: RT-Y181C ; result: >100 µM
Cc1ccc(-c2nnc3sc(C(CC(C)C)N4C(=O)c5ccccc5C4=O)nn23)cc1 ; strain or isolate: NNRTI-resistant N119 ; cell line: MT-4 ; changes: RT-Y181C ; result: >100 µM
O=C(O)CCCCCCCCCCCCC(=O)NC(CO[C@@H]1O[C@H](CO)[C@H](O)[C@H](O)[C@H]1O)C(=O)NCCOS(=O)(=O)O ; strain or isolate: IIIB ; method: cytopathic effect / MTT ; cell line: MT-4 ; result: 20 µM

A second listing of 6 rows from above:

smiles | strain or isolate | method | cell line | changes | result
CC(C)Nc1cccnc1N(C)CCCCN(C)C(=O)c1cc2ccccc2[nH]1 | - | p24 | PBL | - | >0.01 µM
CC(C)C1=C2[C@H]3CC[C@@H]4[C@@]5(C)CC[C@H](OC(=O)[C@H]6C[C@@H](C(=O)O)C6(C)C)C(C)(C)[C@@H]5CC[C@@]4(C)[C@]3(C)CC[C@@]2(CC(=O)NCC(C)(C)NC(=O)c2ncccn2)CC1=O | 92HT599 | p24 / ELISA | MT-2 | - | <1 µM
COCc1nc(Nc2ccc(C#N)cc2)nc(Nc2c(C)cc(/C=C/C#N)cc2C)c1C(=O)N(C)OC | L1001+K103N | - | MT4 CMV-EGFP | - | 0.0646 µM
CC(C)c1c(Cc2ccccc2)n(COCc2ccc(/C(O)=C/C(=O)C(=O)O)cc2)c(=O)[nH]c1=O | - | - | - | - | 0.033 µM
Cc1ncc(-c2ccc(OCCc3ccc(F)cc3)cn2)c(N2CCC3(CCCO3)CC2)c1[C@H](OC(C)(C)C)C(=O)O | NL4-3 | luminescence | MT-2 | - | 11.7 µM
COCc1nc(Nc2ccc(C#N)cc2)nc(Oc2c(C)cc(/C=C/C#N)cc2C)c1C(=O)NCc1ccncc1 | L1001+K103N | - | MT4 CMV-EGFP | - | 0.0933 µM